Measurements reported in publication PMC10132805 (Nature Communications, 2023).

What was measured:
[1] = biological target: T1, Mu homology domain (MHD) of the AP-2 subunit mu (AP2M1 MHD) (human, UniProt Q96CW1 170-434); conditions: both partners purified
T1 sequence (looked up): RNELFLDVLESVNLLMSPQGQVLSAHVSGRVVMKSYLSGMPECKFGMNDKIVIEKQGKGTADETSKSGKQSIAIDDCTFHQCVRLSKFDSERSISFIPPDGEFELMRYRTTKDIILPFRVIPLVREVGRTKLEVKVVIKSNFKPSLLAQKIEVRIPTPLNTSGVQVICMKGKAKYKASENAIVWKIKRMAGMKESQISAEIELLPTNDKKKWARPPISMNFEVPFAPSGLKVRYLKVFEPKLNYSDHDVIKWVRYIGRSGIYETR

[2] = biological target: T2, C terminal domain of polyadenylate-binding protein 1 (PABP1 PABC) (human, UniProt P11940 542-619); conditions: both partners purified
T2 construct: also called PABPC1 PABC; PABP1 C

## PTDSNFYRALMDEEDM [EGFR 992-1007 (Human)]
[1]
  Kd: 2400 nM

## FDTEYQRLEAS (FITC on the N-terminus) [FITC - ATG9A 4-14 (Human)]
[1]
  Kd: 760 nM

## KSNLNPNAKEFVPGVK (FITC on the N-terminus) [FITC - PAIP2 108-123 (Human)]
[2]
  Kd: 380 nM
